Experimental data taken from patent publication US20070190523A1 (priority 2002, published 2007).

System: mutant HIV-1 with M46F/I47V/I50V mutations (I50V #1)
Type: cell-based
[1] = fold difference in EC50 vs wild type, class symbols

Row | Structure (SMILES) | I50V (#1) fold change [1] | I50V (#1) fold change (I50V (#1) mutant)
1 | COc1ccc(S(=O)(=O)N(CC(C)C)CC(O)C(CNc2ccc(CP(=O)(O)O)cc2)NC(=O)OC2COC3OCCC23)cc1 (stereo not shown) | + (>3 to ≦10) | 
2 | CCOP(=O)(COc1ccc2c(c1)CCN(CC(NC(=O)OC1COC3OCCC13)C(O)CN(CC(C)C)S(=O)(=O)c1ccc(OC)cc1)C2)OCC (stereo not shown) | + (>3 to ≦10) | 
3 | CCOC(=O)C(C)OP(=O)(Cc1ccc2c(c1)CCN(C[C@H](NC(=O)O[C@H]1CO[C@H]3OCC[C@H]31)[C@H](O)CN(CC(C)C)S(=O)(=O)c1ccc(OC)cc1)C2)Oc1ccccc1 (stereo partly shown) |  | ++ (>10 to ≦30)
4 | CCOC(=O)COP(=O)(COc1ccc(CC(NC(=O)OC2COC3OCCC23)C(O)CN(CC(C)C)S(=O)(=O)c2ccc(OC)cc2)cc1)OCC(=O)OCC (stereo not shown) [drawing 607 R1=Glc-Et R2=Glc-Et] | − (≦3) | 

Like-named read-outs stand apart in the source and are kept apart here.
